Test system: EcoHIV-infected mice
Experiment: Radial arm water maze, DON prophylaxis in EcoHIV-infected mice
Conditions: DON 1 mg/kg, i.p., q.o.d.

[N-]=[N+]=CC(=O)CC[C@H](N)C(=O)O [DON, 6-diazo-5-oxo-L-norleucine]
overt signs of toxicity (diarrhea, weight loss): no mice exhibited overt signs of toxicity

From patent publication US11110104B2, “Glutamine antagonists for the treatment of cognitive deficits and psychiatric disorders” (THE JOHNS HOPKINS UNIVERSITY, priority 2015, dated 2021)
